Assay results from US20090317419A1, “Tetramers” (Duke University, priority 2008, published 2009).

Target: peptide …
Test: peptide ELISA, mAb at 1 µg/mL

With F39F (antibody) the OD @ 405 nm was 0.956 OD.
